# According to PubChem BioAssay AID651644 (National Center for Advancing Translational Sciences (NCATS), 2012):
# This is a selection; strong and weak results do not stand in their true shares. Calls of active or inactive are those of the source. The call rests on the fitted dose curve; in most records, active means well fitted falling curve with a large enough effect; inconclusive means small, poorly fitted or top-dose-only effect; inactive means no such curve, though single readings can be large or run the other way.
# Assay: qHTS Assay for Inhibitors of the HIV-1 protein Vpr; further: nearly all actives have a fitted effect of over 50% in size
# Conditions: S. pombe RE007 Vpr strain, BacTiter-Glo ATP luminescence, 24 h; at 92.2 µM (top of the series) unless noted
# On the % scale 0 is the no-effect control and ±100 the full control effect.
row,Structure (SMILES),"activity change, negative = less growth"
1,CP(=O)(Nc1ccc(SC(F)(F)F)cc1)Oc1ccc(F)cc1 (centres undefined),inactive: -13.1%
2,O=P(Nc1nccs1)(c1ccccc1)c1ccccc1,inactive: 6.27%
3,CC(C)C(=O)NC(Sc1ccccc1)C(Cl)(Cl)Cl (centres undefined),inactive: -10.1%
4,C(Cc1nn[nH]n1)Cc1nn[nH]n1,inactive: 7.84%
5,Nc1ccc([As](=O)(O)c2ccc([N+](=O)[O-])cc2)cc1,inactive: 1.02%
6,Cc1c(C(c2ccc3c(c2)OCO3)c2c(C)n(C)n(-c3ccccc3)c2=O)c(=O)n(-c2ccccc2)n1C.O=[N+]([O-])c1cc([N+](=O)[O-])c(O)c([N+](=O)[O-])c1,inactive: 18.6%
7,O=C(OC1CN2CCC1CC2)c1cccc(Cl)c1 (centres undefined),inactive: -3.97%
8,O=[N+]([O-])c1ccc(OP2(=O)COCCO2)cc1 (centres undefined),inactive: 3.89%
9,O=[N+]([O-])c1ncn(CCn2cnc([N+](=O)[O-])n2)n1,inactive: -0.952%
10,O=[N+]([O-])c1ccc(O)c(/C=N/Nc2ccc([N+](=O)[O-])cc2[N+](=O)[O-])c1,inactive: -8.6%
11,Cc1cc(-c2cccc3ccccc23)c(C)cn1.O=[N+]([O-])c1cc([N+](=O)[O-])c(O)c([N+](=O)[O-])c1,inactive: -2.94%
12,O=[As](O)(c1ccccc1)c1ccc(O)cc1,inactive: -3.48%
13,C[C@H]1OP(=O)(Oc2ccccc2)[C@H](O)[C@H](O)[C@H]1N=[N+]=[N-] (some centres undefined),inactive: -3.74%
14,O=P(Nc1nc2ccccc2s1)(c1ccccc1)c1ccccc1,inactive: -10.4%
15,CN(C)CCOC(=O)C(O)(c1ccccc1)C1CCCCC1 (centres undefined),inactive: 1.12%
16,COc1ccc(NP(C)(=O)Oc2ccccc2OC)cc1 (centres undefined),inactive: 2.11%
17,COc1ccc(N)c([N+](=O)[O-])c1[N+](=O)[O-],inactive: 3.57%
18,COc1ccc(OP(C)(=O)Nc2cccc(Br)c2)cc1 (centres undefined),inactive: -2.94%
19,O=P(Nc1ccccn1)(c1ccc(Br)cc1)c1ccc(Br)cc1,inactive: 5.32%
20,Cc1ccc(OCC(=O)OC2CN3CCC2CC3)cc1 (centres undefined),inactive: -4.73%
21,NS(=O)(=O)c1cccc(NC(=O)COC(=O)C(O)(c2ccccc2)c2ccccc2)c1,inactive: -11.9%
22,O=P1(Nc2ccc(Br)cn2)COc2ccccc2OC1,inactive: 8.9%
23,CCCOc1ccc(NP(C)(=O)Oc2ccc(Cl)cc2)cc1 (centres undefined),inactive: 2.7%

row,Structure (SMILES),"activity change, negative = less growth"
1,Nc1cccc([As](=O)(O)c2ccccc2)c1,inactive: 3.31%
2,CP(=O)(Nc1ccc(SC(F)(F)F)cc1)Oc1ccccc1 (centres undefined),inactive: 6.05%
3,CN1CCCCC1COC(=O)C1(O)c2ccccc2CCc2ccccc21 (centres undefined),inactive: -19.5%
4,COc1ccccc1OP(C)(=O)Nc1c(C)cccc1C (centres undefined),inactive: 3.4%
5,O=P1(Nc2ncccn2)COc2ccccc2OC1,inactive: -5.05%
6,CCCC1OP(=O)(Nc2ccccc2)OCC1CC (centres undefined),inactive: 1.64%
7,O=C(/C=C/c1ccccc1)OC1CN2CCC1CC2 (centres undefined),inactive: -3.09%
8,CC1=C2N=C(C=C3N=C(C(C)=C4[N-][C@@](C)([C@@H]5N=C1[C@](C)(CCC(=O)NC[C@@H](C)OP(=O)([O-])O[C@H]1[C@@H](O)[C@@H](n6cnc7cc(C)c(C)cc76)O[C@@H]1CO)[C@H]5CC(N)=O)[C@@](C)(CC(N)=O)[C@@H]4CCC(N)=O)[C@@](C)(CC(N)=O)[C@@H]3CCC(N)=O)C(C)(C)[C@@H]2CCC(N)=O.[C-]#N.[Co+3],inactive: -15.9%
9,CN(C)C1(CNC(=O)c2ccc(S(C)(=O)=O)cc2)CCCCC1,inactive: -4.41%
10,O=[N+]([O-])c1cc([N+](=O)[O-])c(Nc2nnnn2CCO)c([N+](=O)[O-])c1,inactive: -3.85%
11,COc1cc(C2NCCC3(OCCO3)C2(C)C)cc(OC)c1OC.O=[N+]([O-])c1cc([N+](=O)[O-])c(O)c([N+](=O)[O-])c1 (centres undefined),inactive: -15.9%
12,Cc1ccc(C(=O)OC2CN3CCC2CC3)cc1 (centres undefined),inactive: -4.23%
13,CC1CCC(C(C)C)C(OP(=O)(Nc2ccccn2)c2ccccc2)C1 (centres undefined),inactive: 15.6%
14,Cc1nn(-c2ccccc2)c2c1P(=O)(N1CCOCC1)N(C)C(c1ccccc1)=N2 (centres undefined),inactive: 12.6%
15,CC1(CBr)Cn2c(nc3ccccc3c2=O)S1 (centres undefined),inactive: 20.9%
16,Cc1ccc(S(=O)(=O)N(CCCN)CCCc2c(C)nc(N)[nH]c2=O)cc1.O=[N+]([O-])c1cc([N+](=O)[O-])c(O)c([N+](=O)[O-])c1,inactive: 23% [at 18.4 µM]
17,CC(C)/C=N\N=C(\N)N[N+](=O)[O-],inactive: -5.39%
18,COc1ccccc1CNC(=O)COC(=O)C(O)(c1ccccc1)c1ccccc1,inactive: 2.24%
19,O=[N+]([O-])c1cc([N+](=O)[O-])c(-c2cnn(-c3ccccc3)c2)c([N+](=O)[O-])c1,inactive: -12.5%
20,CC(C)(C)C(=O)NC(Sc1ncccn1)C(Cl)(Cl)Cl (centres undefined),inactive: -5.94%
21,Clc1n[nH]nc1-c1nn[nH][15n]1,inactive: -13.3% [at 3.69 µM]
22,O=P1(N(CCCl)CCCl)NCCC(C(F)(F)F)O1 (centres undefined),inactive: -16.8%
23,CN(Cc1cccnc1)C(=O)COc1ccc(Cl)c(Cl)c1.O=[N+]([O-])c1cc([N+](=O)[O-])c(O)c([N+](=O)[O-])c1,inactive: 9.42%

row,Structure (SMILES),"activity change, negative = less growth"
1,CN(CCCl)Cc1cc(Cl)c(NC2=NCCN2)c(Cl)c1,inactive: 2.89% [at 18.4 µM]
2,O=[N+]([O-])c1cc([N+](=O)[O-])c(-n2nnc3ccccc32)c([N+](=O)[O-])c1,inactive: 31.2%
3,Nc1ccc(CCCCOc2ccccc2)cc1.O=[N+]([O-])c1cc([N+](=O)[O-])c(O)c([N+](=O)[O-])c1,inactive: -11.8% [at 18.4 µM]
4,CCOP(=O)(NC(=NC(C)c1ccccc1)NC(C)c1ccccc1)OCC (centres undefined),inactive: 13.4%
5,CCC1=CC2Cc3nc4ccc(Cl)cc4c(N)c3C(C1)C2 (centres undefined),inactive: 8.24%
6,O=P1(Nc2ccccn2)COc2ccccc2OC1,inactive: -0.563%
7,O=C(O)C(O)c1ccc(N(CCCl)CCCl)cc1.c1ccncc1 (centres undefined),inactive: 6.19%
8,CCOP(=O)(Nc1cccc2ccccc12)OCC,inactive: -24.8%
9,Cc1ccc(C)c(NP(C)(=O)Oc2ccccc2)c1 (centres undefined),inactive: 2.39%
10,CCCOP(=S)(Nc1nc(N)cc(=O)[nH]1)OCCC,inactive: -3.91%
11,Cc1cc(C)cc(OP(C)(=O)Nc2ccccn2)c1 (centres undefined),inactive: -9.27%
12,CP(=O)(Nc1cccc(Br)c1)Oc1ccccc1 (centres undefined),inactive: -4.88%
13,CCOC(=O)c1ccc(NP(C)(=O)Oc2cc(C)cc(C)c2)cc1 (centres undefined),inactive: 16.5%
14,Cc1cc(C)cc(OP(C)(=O)Nc2ccc(C)cc2C)c1 (centres undefined),inactive: -8.33%
15,Cc1cccc(OCC(=O)OC2CN3CCC2CC3)c1 (centres undefined),inactive: 17.2%
16,O=[As](O)(c1cccc(O)c1)c1cccc(O)c1,inactive: 6.48%
17,COc1ccccc1OP(C)(=O)Nc1cccc(Br)c1 (centres undefined),inactive: -1.43%
18,CS(=O)(=O)c1ccc(Cl)c(NC(=O)COC(=O)C(O)(c2ccccc2)c2ccccc2)c1,inactive: -10.4%
19,O=[As](O)(O)c1cccnc1,inactive: 6.56%
20,COc1cc(C(=O)NCC2(N3CCOCC3)CCCCC2)cc(Cl)c1OC(C)C,inactive: -14.2%
21,O=C(OC1CN2CCC1CC2)c1ccc(Cl)cc1 (centres undefined),inactive: 9.64%
22,CN(C(=O)Cc1ccc(Cl)c(Cl)c1)[C@H]1CC[C@@]2(CCCO2)C[C@@H]1N1CCCC1,inactive: 1.44% [at 18.4 µM]
23,O=[N+]([O-])c1ccc2c(c1)nnn2O,inactive: -1.82%

row,Structure (SMILES),"activity change, negative = less growth"
1,CN(C(=O)Cc1ccccc1)[C@@H]1CC[C@]2(CCCO2)C[C@H]1N1CCCC1,inactive: 10.7% [at 18.4 µM]
2,CCOP1(=S)c2c(C)nn(CCC#N)c2N=C(c2ccc(F)cc2)N1C (centres undefined),inactive: -4.87%
3,N#CCCN(C(=O)COC(=O)C(O)(c1ccccc1)c1ccccc1)c1ccc(F)cc1,inactive: 0.678%
4,NC(=O)Nc1ccc([As](=O)(O)O)cc1,inactive: -11.5%
5,O=C(O)COc1ccc([As](=O)(O)O)cc1[N+](=O)[O-],inactive: 15.5%
6,Nc1ccccc1[As](=O)(O)c1ccccc1,inactive: -18.3%
7,CS(=O)(=O)c1cc([N+](=O)[O-])c2no[n+]([O-])c2c1,inactive: -9.54%
8,O=P(Nc1nccs1)(Oc1ccccc1)Oc1ccccc1,inactive: 25.7%
9,CCOP1(=S)c2c(C)nn(CCC#N)c2N=C(c2ccccc2F)N1C (centres undefined),inactive: -0.73%
10,COc1ccc(OP(C)(=O)Nc2cccc(F)c2)cc1 (centres undefined),inactive: -0.509%
11,O=[N+]([O-])c1cc([N+](=O)[O-])c(-c2ccn[nH]2)s1,inactive: -11.2%
12,CC(C)NC(=O)NP(=O)(Oc1ccccc1)Oc1ccccc1,inactive: 12.3%
13,COc1ccccc1OP(C)(=O)Nc1cc(Cl)ccc1C (centres undefined),inactive: -2.45%
14,CCN(CC)C(=S)SC(NC=O)C(Cl)(Cl)Cl (centres undefined),inactive: 1.36%
15,O=C(OC1CN2CCC1CC2)c1cccc2[nH]cnc12 (centres undefined),inactive: -9.78%
16,COC(=O)C1(C)COP(=O)(N2CCCCCC2)OC1 (centres undefined),inactive: 0.246%
17,CC(C)c1ccc(OP(=O)(Nc2ccccn2)Oc2ccccc2F)cc1 (centres undefined),inactive: 7.15%
18,COc1ccccc1OP(C)(=O)Nc1ccc(C)cc1 (centres undefined),inactive: 0.863%
19,ClCCSc1nnc(-c2cccnc2)o1,inactive: -3.39%
20,CCOC(=O)c1ccc(NP(C)(=O)Oc2ccccc2)cc1 (centres undefined),inactive: 15%
